Results from patent US20180002699.

Target: T1, full-length synthetic Tat protein (aa 1-72)
T1 chain: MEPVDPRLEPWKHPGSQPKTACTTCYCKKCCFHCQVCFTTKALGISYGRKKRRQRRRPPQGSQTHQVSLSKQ

B1: recombinant SMYD2 (SET and MYND domain containing-2 histone methyltransferase), wild type (protein)
chain: MRAEGLGGLERFCSPGKGRGLRALQPFQVGDLLFSCPAYAYVLTVNERGNHCEYCFTRKEGLSKCGRCKQAFYCNVECQKEDWPMHKLECSPMVVFGENWNPSETVRLTARILAKQKIHPERTPSEKLLAVKEFESHLDKLDNEKKDLIQSDIAALHHFYSKHLGFPDNDSLVVLFAQVNCNGFTIEDEELSHLGSAIFPDVALMNHSCCPNVIVTYKGTLAEVRAVQEIKPGEEVFTSYIDLLYPTEDRNDRLRDSYFFTCECQECTTKDKDKAKVEIRKLSDPPKAEAIRDMVRYARNVIEEFRRAKHYKSPSELLEICELSQEKMSSVFEDSNVYMLHMMYQAMGVCLYMQDWEGALQYGQKIIKPYSKHYPLYSLNVASMWLKLGRLYMGLEHKAAGEKALKKAIAIMEVAHGKDHPYISEIKQEIESH
  in vitro methylation (3H-SAM, autoradiography): Tat was methylated in response to SMYD2
